Anti-infective test results gathered from many reports (values: NIAID ChemDB through PubChem).

All rows: growth or infection tests; species: Human cytomegalovirus; cells: HEL; read-out: EC50

Rows are shuffled and stem from different studies.

structure,strain or isolate,read by,value
O=C1CCCC(C23CC4CC(C2)CC(N2C(=O)c5ccccc5C2=O)(C4)C3)C1,DAVIS,plaque count,>4 µg/mL
CC(C)NS(=O)(=O)c1ccccc1C(=O)N/N=C/c1ccc(-c2cccs2)cc1,DAVIS,plaque count,>100 µM
CC(=O)OC[C@H]1O[C@@H](c2ccccc2)C[C@@H]1OC(C)=O,AD169,plaque count,>100 µg/mL
O=C(O)P(=O)(O)O,U9070 (ganciclovir-resistant),plaque count,85 µM
OC[C@H]1O[C@@H](c2ccc(F)cc2F)C[C@@H]1O,DAVIS,cytopathic effect,>200 µM
CC(C)NS(=O)(=O)c1ccccc1-c1n[nH]c(=S)o1,DAVIS,plaque count,>100 µM
Nc1cccc2c1C(=O)N(C13CC4CC(CC(C4)C1)C3)C2=O,DAVIS,plaque count,>0.8 µg/mL
Cc1ccc(S(=O)(=O)n2cc(I)c(=O)[nH]c2=O)cc1,AD169,cytopathic effect,>80 µM
O=C1c2ccccc2C(=O)N1CCC12CC3CC(CC(C3)C1)C2,DAVIS,plaque count,>100 µg/mL
CCCCCCCCc1cc2cnc(OCCC(C)C)nc2o1,AD169,plaque count,>5 µM
CCOC(=O)/C=C\C=C\[C@H]1O[C@@H](n2ccc(=O)[nH]c2=O)[C@H](O)[C@@H]1O,AD169,-,10 µM
Cc1ccn2c(CSCc3ccccc3)c(-c3ccccn3)nc2c1,DAVIS,cytopathic effect,0.95 µg/mL
Cc1cccn2c(C3SCCS3)cnc12,DAVIS,-,16 µM
Nc1ccn(C[C@@H](CO)OCP(=O)(O)O)c(=O)n1,AD169,plaque count,0.25 µM
Nc1ccn(C[C@@H](CO)OCP(=O)(O)O)c(=O)n1,U9070 (ganciclovir-resistant),plaque count,0.49 µM
COc1ccc(CSCc2cnc3c(Br)cc(Br)c(C)n23)cc1,AD169,plaque count,>50 µg/mL
N#CC1C(c2ccc(Cl)cc2)Nc2ccccc2S1(=O)=O,AD169,cytopathic effect,3.1 µg/mL
CCCCCCC#Cc1cn(S(=O)(=O)c2ccc(C)cc2)c(=O)[nH]c1=O,DAVIS,cytopathic effect,>16 µM
Nc1cccc2c1C(=O)N(C1C3CC4CC(C3)CC1C4)C2=O,DAVIS,plaque count,63 µg/mL
Cc1ccn2c(C3SCCS3)cnc2c1,AD169,-,73 µM
Cc1c(Br)cc(Br)c2ncc(CSCCc3ccccc3)n12,AD169,plaque count,1.1 µg/mL
Cc1ccn2c(CSCc3ccccc3)c(-c3cccs3)nc2c1,DAVIS,cytopathic effect,7 µg/mL
Cc1ccn2c(C(SCCc3ccccc3)SCCc3ccccc3)cnc2c1,DAVIS,-,3.1 µM
Cc1nc2ccccn2c1NC(=O)c1ccccc1,DAVIS,cytopathic effect,>50 µg/mL
Cc1c(Br)cc(Br)c2ncc(CSCc3ccc(Cl)c(Cl)c3)n12,DAVIS,plaque count,>5 µg/mL
CC(=O)NS(=O)(=O)c1cc(C)c(NC(=O)CN2C(=O)c3ccccc3S2(=O)=O)cc1C,DAVIS,plaque count,>100 µM
CCCCCC#Cc1cn(S(=O)(=O)c2ccc(C)cc2)c(=O)[nH]c1=O,DAVIS,cytopathic effect,51 µM
CCCCCCc1cc2cn(C3CCCO3)c(=O)nc2o1,DAVIS,plaque count,>50 µM
Cc1ccn2c(CSCc3ccccc3)c(C(F)(F)F)nc2c1,AD169,cytopathic effect,0.95 µg/mL
CC(C)NS(=O)(=O)c1ccccc1C(=O)N/N=C/c1ccc(F)cc1,DAVIS,plaque count,>100 µM
Cc1c(Br)cc(Br)c2ncc(CSCCCc3ccccc3)n12,AD169,plaque count,1 µg/mL
C/C(=N/Nc1nc(-c2ccc(C)cc2)cs1)c1ccc(NC(=O)CN2C(=O)c3ccccc3S2(=O)=O)cc1,DAVIS,plaque count,20 µM
O=[N+]([O-])c1cc([C@H]2C[C@H](O)[C@@H](CO)O2)c(F)cc1F,AD169,cytopathic effect,118 µM
Nc1nccc2c1ncn2C[C@@H](CO)OCP(=O)(O)O,AD169,hybridisation,0.18 µM
CCCCCCc1cc2cn(C3CCCC3)c(=O)nc2o1,DAVIS,plaque count,>50 µM
Cc1cn(C(CF)CCCO)c(=O)[nH]c1=O,DAVIS,cytopathic effect,>50 µg/mL
OC[C@H]1O[C@@H](c2cc(C(F)(F)F)c(F)cc2F)C[C@@H]1O,DAVIS,cytopathic effect,>200 µM
Cc1cn(CCCC(O)CF)c(=O)[nH]c1=O,DAVIS,cytopathic effect,>50 µg/mL
Cc1cc([C@@H]2C[C@H](O)[C@@H](CO)O2)c(F)cc1Cl,DAVIS,cytopathic effect,158 µM
Cc1oc(NC(=O)C(F)(F)F)c(S(=O)(=O)c2ccc(Cl)cc2)c1C,AD169,cytopathic effect,>5 µg/mL
CCCCCCc1cc2cn(CCC(C)C)c(=O)nc2o1,AD169,plaque count,>50 µM
N#CC1C(c2ccc(Cl)cc2)Nc2sccc2S1(=O)=O,AD169,cytopathic effect,7 µg/mL
Cc1ccn2c(CSCc3ccccc3)cnc2c1,DAVIS,cytopathic effect,3.5 µg/mL
O=C1c2ccccc2C(=O)N1C12CC3CC(CC(C3)C1)C2,AD169,plaque count,>100 µg/mL
Nc1nc2c(ncn2CCCC(O)CF)c(=O)[nH]1,AD169,cytopathic effect,>50 µg/mL
Cc1c(Br)cc(Br)c2ncc(CSCc3cccc(C(F)(F)F)c3)n12,AD169,plaque count,>50 µg/mL
CCCCCCCCCCC#Cc1cn(S(=O)(=O)c2ccc(C)cc2)c(=O)[nH]c1=O,AD169,cytopathic effect,>80 µM
Cc1cccc(CSCc2cnc3c(Br)cc(Br)c(C)n23)c1,AD169,plaque count,>20 µg/mL
O=C1c2ccccc2C(=O)N1C1C2CC3CC(C2)CC1C3,AD169,plaque count,>4 µg/mL
OC[C@H]1O[C@@H](c2ccccc2)[C@H](O)[C@@H]1O,DAVID,plaque count,>50 µg/mL
CCCCCCCC#Cc1cn(S(=O)(=O)c2ccc(C)cc2)c(=O)[nH]c1=O,DAVIS,cytopathic effect,>16 µM
CC(C)NS(=O)(=O)c1ccccc1C(=O)N/N=C/c1ccccc1,DAVIS,plaque count,>100 µM
Cc1ccn2c(CSCc3ccccc3)c(-c3ccco3)nc2c1,DAVIS,cytopathic effect,>50 µg/mL
Nc1nc2c(ncn2COC(CO)CO)c(=O)[nH]1,DAVIS,plaque count,15.7 µM
CO[C@H]1[C@H]2O[Si](C(C)C)(C(C)C)O[Si](C(C)C)(C(C)C)OC[C@@H]2O[C@@H]1c1ccccc1,DAVID,plaque count,1.3 µg/mL
N#CC1=C(c2ccccc2)Nc2sccc2S1(=O)=O,AD169,cytopathic effect,>50 µg/mL
Cc1ccn2c(C3OCCS3)cnc2c1,AD169,-,>106 µM
Cc1nc2ccccn2c1NC(=O)Nc1ccccc1,AD169,cytopathic effect,50 µg/mL
Cc1cccn2c(CSCc3ccccc3)cnc12,AD169,cytopathic effect,0.12 µg/mL
Cc1c(Br)cc(Br)c2ncc(CSCc3cccs3)n12,DAVIS,plaque count,>50 µg/mL
Nc1ccn(C[C@@H](CO)OCP(=O)(O)O)c(=O)n1,AD169,plaque count,1.4 µM
O=C1c2ccccc2C(=O)N1CCCC12CC3CC(CC(C3)C1)C2,DAVIS,plaque count,≥4 µg/mL

The last 7 rows once more:

structure	strain or isolate	read by	value
N#CC1=C(c2ccccc2)Nc2sccc2S1(=O)=O	AD169	cytopathic effect	>50 µg/mL
Cc1ccn2c(C3OCCS3)cnc2c1	AD169	-	>106 µM
Cc1nc2ccccn2c1NC(=O)Nc1ccccc1	AD169	cytopathic effect	50 µg/mL
Cc1cccn2c(CSCc3ccccc3)cnc12	AD169	cytopathic effect	0.12 µg/mL
Cc1c(Br)cc(Br)c2ncc(CSCc3cccs3)n12	DAVIS	plaque count	>50 µg/mL
Nc1ccn(C[C@@H](CO)OCP(=O)(O)O)c(=O)n1	AD169	plaque count	1.4 µM
O=C1c2ccccc2C(=O)N1CCCC12CC3CC(CC(C3)C1)C2	DAVIS	plaque count	≥4 µg/mL

ECn: concentration that inhibits the pathogen or its effect by n%. An empty or dashed field is not shown.